These results are taken from publication PMC4645341 (Journal of Virology, 2015).

Test [1] addresses HIV-1 JR-CSF Env on pseudotyped virus (PsV) particles (HIV-1 isolate JR-CSF, UniProt P20871). Kind of test: far-Western, overlay or dot blot.
In test [2] the target is Recombinant gp41 (r-gp41; HIV-1MN isolate) (HIV-1 isolate MN, UniProt P05877). Briefly: ELISA. On the technique in general: An ELISA detects its analyte on a solid surface through an enzyme-linked reagent.

B1: 4E10 WT Fab (Fab, V domains shown)
VH: VQLVQSGAEVKRPGSSVTVSCKASGGSFSTYALSWVRQAPGRGLEWMGGVIPLLTITNYAPRFQGRITITADRSTSTAYLELNSLRPEDTAVYYCAREGTTGWGWLGKPIGAFAHWGQGTLVTVSS
VL: EIVLTQSPGTQSLSPGERATLSCRASQSVGNNKLAWYQQRPGQAPRLLIYGASSRPSGVADRFSGSGSGTDFTLTISRLEPEDFAVYYCQQYGQSLSTFGQGTKVEVK
As for B1, the binding result in test [1] and in test [2] was “binds” in each case.

B2: 4E10 ΔLoop Fab (Fab, V domains shown)
VH: VQLVQSGAEVKRPGSSVTVSCKASGGSFSTYALSWVRQAPGRGLEWMGGVIPLLTITNYAPRFQGRITITADRSTSTAYLELNSLRPEDTAVYYCAREGTTGSGGKPIGAFAHWGQGTLVTVSS
VL: EIVLTQSPGTQSLSPGERATLSCRASQSVGNNKLAWYQQRPGQAPRLLIYGASSRPSGVADRFSGSGSGTDFTLTISRLEPEDFAVYYCQQYGQSLSTFGQGTKVEVK
As for B2, in test [2], the binding result is “binds”.
